The experiment deals with Human immunodeficiency virus type 1 protease (Human immunodeficiency virus 1, UniProt Q72874). As to the kind of experiment: Inhibitory activity against HIV protease.

Molecules are shown by their SMILES. pKi: −log10 of the molar value.

For orientation: pKi means −log10 of the Ki, conventionally taken in molar units. The low end stands for a high Ki, the high end for a low Ki. `CC(C)[C@@H]1[C@H](O)[C@@H](O)[C@@H](C(C)C)N(CC2CC2)C(=O)N1CC1CC1` showed a negative-log Ki (pKi) of 6.60.
